Key:
[1] = test system: Nc1ncnc2c1ncn2[C@@H]1O[C@H](COP(=O)(O)OP(=O)(O)OP(=O)(O)O)[C@@H](O)[C@H]1O; test: purified protein; settings: 15 mM CDP-NH2, pH 8.0, 25 °C
[2] = test system: Nc1ccn([C@@H]2O[C@H](COP(=O)(O)OP(N)(=O)O)[C@@H](O)[C@H]2O)c(=O)n1; test: purified protein; settings: 10 mM ATP, pH 8.0, 25 °C

Cj1415 (cytidine diphosphoramidate kinase, CDK) (Campylobacter jejuni subsp. jejuni NCTC 11168 = ATCC 700819; S85A)
Km [1]: 0.7 ± 0.1 mM
kcat [1]: 1.6 s⁻¹
kcat/Km [1]: 2300 M⁻¹ s⁻¹
Km [2]: 4.4 ± 0.4 mM
kcat [2]: 1.6 s⁻¹
kcat/Km [2]: 360 M⁻¹ s⁻¹

From PMC5938747
